Compound potency records, mixed from different reports. Data source: NIAID ChemDB in PubChem.

Shared fields: tests on isolated targets; agent: HIV-1; protein: Protease

Rows are shuffled and stem from different studies.

CCC(C)(C)NC(=O)[C@@H]1CCCN1C(=O)[C@@H](O)[C@H](Cc1ccccc1)NC(=O)[C@H](CC(N)=O)NC(=O)OCc1ccccc1 ; measure: IC50 ; value: <5 µM
CC(C)(CCCCN=C(NC#N)Oc1ccccc1)CN(C[C@@H](O)[C@H](Cc1ccccc1)NC(=O)O[C@H]1CO[C@H]2OCC[C@H]21)S(=O)(=O)c1ccc2c(c1)OCO2 ; measure: Ki ; method: fluorescence ; value: <0.001 µM
CC(C)C[C@@H](CO)NC(=O)[C@H]1O[C@H]2CN(Cc3ccccc3)C(=O)[C@@H]1O2 ; measure: inhibition ; dose: 10 µM ; method: FRET ; value: 0%
CCSC(=O)NCCCC(C)(C)CN(C[C@@H](O)[C@H](Cc1ccccc1)NC(=O)O[C@H]1CO[C@H]2OCC[C@H]21)S(=O)(=O)c1ccc2c(c1)OCO2 ; measure: Ki ; method: fluorescence ; value: <0.001 µM
CC(C)Oc1cccc(OCC(=O)N[C@@H](CC(N)=O)C(=O)N[C@@H](Cc2ccccc2)[C@H](O)C(=O)N2CSC(C)(C)[C@H]2C(=O)NC(C)(C)C)c1 ; measure: IC50 ; value: <0.05 µM
CC(C)COC(=O)[C@H](Cc1ccccc1)NC(=O)CCC(=O)N[C@@H](Cc1ccccc1)C(=O)OCC(C)C ; measure: inhibition ; dose: 10 µM ; method: absorbance ; value: 23%
CS(=O)(=O)C[C@H](NC(=O)COc1cccc2ccccc12)C(=O)N[C@@H](Cc1ccccc1)[C@H](O)C(=O)N1CSC[C@H]1C(=O)N[C@H](C(N)=O)c1ccccc1 ; measure: inhibition ; dose: 0.05 µM ; value: 6.1%
CC(C)COC(=O)[C@H](Cc1ccccc1)NC(=O)/C=C\C(=O)N[C@@H](Cc1ccccc1)C(=O)OCC(C)C ; measure: inhibition ; dose: 10 µM ; method: absorbance ; value: 16%
CC[C@@H](C)[C@H](NC(=O)[C@@H]1CCCN1C(=O)[C@@H](O)[C@H](CC1CCCCC1)NC(=O)[C@H](COC)NC(=O)CCc1ccccc1)C(=O)N[C@H](C(N)=O)C(C)C ; measure: IC50 ; value: <5 µM
CN(C)C(=O)NCCCCCC(C)(C)CN(C[C@@H](O)[C@H](Cc1ccccc1)NC(=O)O[C@H]1CO[C@H]2OCC[C@H]21)S(=O)(=O)c1ccc2c(c1)OCO2 ; measure: Ki ; method: fluorescence ; value: <0.001 µM
CC(C)[C@H](NC(=O)CCC(O)CCC(=O)N[C@H](C(=O)OCc1ccccc1)C(C)C)C(=O)OCc1ccccc1 ; measure: inhibition ; dose: 10 µM ; method: absorbance ; value: <10%
O=C(NCCO)[C@@H]1O[C@]2(c3ccccc3)CN(C(c3ccccc3)c3ccccc3)C(=O)[C@H]1O2 ; measure: inhibition ; dose: 10 µM ; method: FRET ; value: 0%
CC[C@@H](C)[C@H](NC(=O)[C@@H]1CCCN1C(=O)[C@@H](O)[C@H](CC1CCCCC1)NC(=O)[C@H](CC(N)=O)NC(=O)CCc1ccccc1)C(=O)N[C@H](C(N)=O)C(C)C ; measure: IC50 ; value: <5 µM
COc1ccc(S(=O)(=O)N(CCCCC#N)C[C@@H](O)[C@H](Cc2ccccc2)NC(=O)OC(C)(C)C)cc1 ; measure: Ki ; method: fluorescence ; value: 0.001–0.01 µM
O=C(CCC(=O)N[C@@H](Cc1ccccc1)C(=O)OCc1ccccc1)CCC(=O)N[C@@H](Cc1ccccc1)C(=O)OCc1ccccc1 ; measure: inhibition ; dose: 10 µM ; method: absorbance ; value: <10%
CC(C)C[C@H](CO)NC(=O)[C@H]1O[C@H]2CN(Cc3ccccc3)C(=O)[C@@H]1O2 ; measure: inhibition ; dose: 10 µM ; method: FRET ; value: 0%
CC(CCC=O)CCN(C[C@@H](O)[C@H](Cc1ccccc1)NC(=O)OC(C)(C)C)S(=O)(=O)c1cccc2c1OCO2 ; measure: Ki ; method: fluorescence ; value: 0.001–0.01 µM
O=C([C@@H]1O[C@H]2O[C@@H]1C(=O)N(Cc1ccccc1)[C@@H]2Cc1ccccc1)N1CCN(CCO)CC1 ; measure: inhibition ; dose: 10 µM ; method: FRET ; value: 0%
CCOC(=O)NCCC(C)(C)CN(C[C@@H](O)[C@H](Cc1ccccc1)NC(=O)O[C@H]1CO[C@H]2OCC[C@H]21)S(=O)(=O)c1ccc(N)cc1 ; measure: Ki ; method: fluorescence ; value: <0.001 µM
CC(C)COC(=O)[C@@H](Cc1ccccc1)NC(=O)C(=O)N[C@H](Cc1ccccc1)C(=O)OCC(C)C ; measure: inhibition ; dose: 10 µM ; method: absorbance ; value: <10%
CC(C)(CCCCNC(=O)O[C@@H]1CCOC1)CN(C[C@@H](O)[C@H](Cc1ccccc1)NC(=O)O[C@H]1CO[C@H]2OCC[C@H]21)S(=O)(=O)c1ccc2c(c1)OCO2 ; measure: Ki ; method: fluorescence ; value: <0.001 µM
CC(C)(C)NC(=O)[C@@H]1[C@@H](c2ccccc2)CCN1C(=O)[C@@H](O)[C@H](Cc1ccccc1)NC(=O)[C@H](CC(N)=O)NC(=O)OCc1ccccc1 ; measure: IC50 ; value: <0.05 µM
COC(=O)[C@@H](NC(=O)[C@H](Cc1ccccc1)NC(=O)C(=O)N[C@@H](Cc1ccccc1)C(=O)N[C@H](C(=O)OC)C(C)C)C(C)C ; measure: inhibition ; dose: 10 µM ; method: absorbance ; value: <10%
CC(C)(CCCN)CN(C[C@@H](O)[C@H](Cc1ccccc1)NC(=O)O[C@H]1CO[C@H]2OCC[C@H]21)S(=O)(=O)c1ccc(N)cc1 ; measure: Ki ; method: fluorescence ; value: <0.001 µM

The first 2 rows once more:

smiles | measure | dose | method | value
CCC(C)(C)NC(=O)[C@@H]1CCCN1C(=O)[C@@H](O)[C@H](Cc1ccccc1)NC(=O)[C@H](CC(N)=O)NC(=O)OCc1ccccc1 | IC50 |  |  | <5 µM
CC(C)(CCCCN=C(NC#N)Oc1ccccc1)CN(C[C@@H](O)[C@H](Cc1ccccc1)NC(=O)O[C@H]1CO[C@H]2OCC[C@H]21)S(=O)(=O)c1ccc2c(c1)OCO2 | Ki |  | fluorescence | <0.001 µM

Two numbers with a dash give a range or band. Blank or dashed fields: not listed here. Inhibition is in % at the dose shown (toxicity tests: loss of growth or viability). ICn is the concentration giving n% inhibition.